Pooled drug test results. Numbers come from NIAID ChemDB, via PubChem.

All rows: target-level tests

ICn is the concentration giving n% inhibition.

smiles,dose,read-out,protein,agent,value
COc1nc(Nc2ccc3[nH]ncc3c2)nc(NN2CCN(C)CC2)n1,0.01 µg/mL,inhibition,DNA polymerase,Hepatitis B virus,6%
O=C(Nc1ccsc1-c1nc(C(=O)O)c(O)c(=O)[nH]1)OC1CCCCC1,,IC50,HCV polymerase,Hepatitis C virus,<25 µM
COc1nc(Nc2ccc3cn[nH]c3c2)nc(N2CCOCC2)n1,0.01 µg/mL,inhibition,DNA polymerase,Hepatitis B virus,30%
O=C(O)c1nc(-c2sccc2NC(=O)C(Cc2ccccc2)c2ccccc2)[nH]c(=O)c1O,,IC50,HCV polymerase,Hepatitis C virus,<25 µM
CCC(CC)n1c(-c2ccc3nc(-c4cc(OC)ccc4-c4ccc(Cl)cc4)ccc3c2)nc2cc(C(=O)O)ccc21,100 µM,inhibition,NS5B polymerase,Hepatitis C virus,101%
Cc1ccccc1S(=O)(=O)Nc1cc(-c2cc3ccccc3o2)sc1C(=O)O,,IC50,NS3 ATPase,Hepatitis C virus,<5 µM
O=C(NCc1cc(Cl)ccc1Cl)Nc1ccsc1-c1nc(C(=O)O)c(O)c(=O)[nH]1,,IC50,HCV polymerase,Hepatitis C virus,<25 µM
O=C(O)c1cc2nc(-c3ccc(Cl)cc3)cc(-c3ccc(Cl)c(Cl)c3)n2n1,,IC50,RNA-dependent RNA polymerase,Hepatitis C virus,>10 µM
COc1nc(Nc2ccc3[nH]ncc3c2)nc(N2CCC(O)CC2)n1,0.1 µg/mL,inhibition,DNA polymerase,Hepatitis B virus,40%
C[C@H](C(=O)Nc1ccsc1-c1nc(C(=O)O)c(O)c(=O)[nH]1)c1ccccc1,,IC50,HCV polymerase,Hepatitis C virus,<25 µM
O=C(O)c1cc2nc(-c3ccc(OCc4cccc(C(F)(F)F)c4)c(F)c3)c(C3CCCCC3)c(=O)n2[nH]1,,IC50,RNA-dependent RNA polymerase,Hepatitis C virus,1–10 µM
CC[C@@H](C=O)NC(=O)[C@H](CC(C)C)NC(=O)[C@@H](NC(=O)[C@@H](NC(=O)Cc1ccccn1)C(C)C)C(C)C,,Ki,NS3 protease,Hepatitis C virus,1–100 µM
Fc1ccc(-c2cnc3c(-c4nn[nH]n4)cnn3c2C2CCCCC2)cc1F,,IC50,RNA-dependent RNA polymerase,Hepatitis C virus,<1 µM
O=C(Cc1cccs1)Nc1ccsc1-c1nc(C(=O)O)c(O)c(=O)[nH]1,,IC50,HCV polymerase,Hepatitis C virus,<25 µM
CC(C)C[C@H](NC(=O)c1cnn2c(C3CCCCC3)c(-c3ccc(F)cc3)cnc12)C(=O)O,,IC50,RNA-dependent RNA polymerase,Hepatitis C virus,1–10 µM
O=C(O)c1ccc2c(c1)nc(-c1ccc3nc(-c4ccccc4)cc(Oc4ccc5ccc(O)cc5c4)c3c1)n2C1CCCCC1,100 µM,inhibition,NS5B polymerase,Hepatitis C virus,100.7%
COc1nc(NCCc2ccccn2)nc(Nc2ccc3cn[nH]c3c2)n1,0.1 µg/mL,inhibition,DNA polymerase,Hepatitis B virus,27%
CC[C@@H](C=O)NC(=O)[C@@H]1C[C@@H](OCc2ccc3c(c2)OCOC3)CN1C(=O)[C@@H](NC(=O)[C@@H](NC(=O)c1cnccn1)C(C)C)C(C)C,,Ki,NS3 protease,Hepatitis C virus,1–100 µM
O=C(O)c1sc(-c2ccccc2)cc1NC(=O)N1CCN(c2ccc([N+](=O)[O-])cc2)CC1,,IC50,NS3 ATPase,Hepatitis C virus,<5 µM
COc1ccc(-c2ccc(Cl)cc2)c(-c2ccc3cc(-c4nc5cc(C(=O)O)cnc5n4C4CCCCC4)ccc3n2)c1,100 µM,inhibition,NS5B polymerase,Hepatitis C virus,99.76%
CCOC(=O)C1=CN(N2CCN(c3nc(Nc4ccc5[nH]ncc5c4)nc(OC)n3)CC2)C(SC)N=C1,0.1 µg/mL,inhibition,Nonstructural protein 5B,Hepatitis C virus,0%
CNC(=O)c1c(-c2ccc(F)cc2)oc2cc(NS(C)(=O)=O)c(C3CCCO3)cc12,,IC50,Nonstructural protein 5B,Hepatitis C virus,≤0.5 µM
CC(C)NC1=NC(NC(C)C)N(CN)C(Nc2ccc3cn[nH]c3c2)=N1,0.1 µg/mL,inhibition,DNA polymerase,Hepatitis B virus,63%
O=C(O)c1nc(-c2ccccc2NS(=O)(=O)c2cc(OCC(F)(F)F)ccc2OCC(F)(F)F)[nH]c(=O)c1O,,IC50,HCV polymerase,Hepatitis C virus,<100 µM
COc1ccc(-c2ccc(Cl)cc2)c(-c2ccc3cc(-c4nc5cc(C(=O)O)ccc5n4C4CCNCC4)ccc3n2)c1,33 µM,inhibition,NS5B polymerase,Hepatitis C virus,32.53%
CNC(=O)c1c(-c2ccc(F)cc2)oc2cc(-c3cnco3)c(OC(C)C)cc12,,IC50,Nonstructural protein 5B,Hepatitis C virus,≤0.5 µM
O=C(O)c1cnn2c(C3CCCCC3)c(-c3cccc(OCc4ccc(OC(F)(F)F)c(Cl)c4)c3)cnc12,,IC50,RNA-dependent RNA polymerase,Hepatitis C virus,>10 µM
CNC(=O)c1c(-c2ccc(F)cc2)oc2cc(S(=O)(=O)N3CCOCC3)c(OC(C)C)cc12,,IC50,Nonstructural protein 5B,Hepatitis C virus,≤0.5 µM
CCCCCc1ccc(C(=O)N(C)c2cc(-c3ccccc3)sc2C(=O)O)cc1,,IC50,NS3 ATPase,Hepatitis C virus,>20 µM
CC[C@H](NC(=O)[C@H](CC(C)C)NC(=O)[C@@H](NC(=O)[C@@H](NC(=O)c1cnccn1)C(C)C)C(C)C)C(=O)C(=O)N[C@H](CC)c1ccccc1,,Ki,NS3 protease,Hepatitis C virus,1–100 µM
Fc1ccc(COc2ccc(-c3cnc4c(-c5nn[nH]n5)cnn4c3C3CCCCC3)cc2)cc1C(F)(F)F,,IC50,RNA-dependent RNA polymerase,Hepatitis C virus,1–10 µM
COc1nc(Nc2ccc3cn[nH]c3c2)nc(N2CCN(CCO)CC2)n1,0.1 µg/mL,inhibition,DNA polymerase,Hepatitis B virus,20%
O=C(CN1CCN(c2ccccc2)CC1)Nc1cscc1-c1nc(C(=O)O)c(O)c(=O)[nH]1,,IC50,HCV polymerase,Hepatitis C virus,<25 µM
O=C(O)c1ccc2c(c1)nc(-c1ccc3nc(-c4cc(O)ccc4-c4ccccc4)ccc3c1)n2C1CCCCC1,100 µM,inhibition,NS5B polymerase,Hepatitis C virus,101%
CC[C@@H](C=O)NC(=O)[C@@H]1C[C@@H](OCc2ccccc2)CN1C(=O)[C@@H](NC(=O)c1cccc(O)c1C)C(C)C,,Ki,NS3 protease,Hepatitis C virus,1–100 µM
CNC(=O)c1c(-c2ccc(F)cc2)oc2cc(N(Cc3cccc(CBr)n3)S(C)(=O)=O)c(OCc3cccc(CBr)n3)cc12,,IC50,Nonstructural protein 5B,Hepatitis C virus,≤0.5 µM
O=C(NC(Cc1c[nH]c2ccc(O)cc12)C(=O)O)c1ccc2c(c1)nc(-c1ccc3nc(-c4cc(C(=O)N5CCCC5)ccc4-c4ccc(Cl)cc4)cnc3c1)n2C1CCCCC1,100 µM,inhibition,NS5B polymerase,Hepatitis C virus,99.5%
CCS(=O)(=O)Nc1cc(-c2ccccc2)sc1C(=O)O,,IC50,NS3 ATPase,Hepatitis C virus,5–20 µM
O=C(O)c1ccc2c(c1)nc(-c1ccc3c(c1)CCC(c1ccccc1)N3)n2C1CCCCC1,33 µM,inhibition,NS5B polymerase,Hepatitis C virus,99.25%
O=C(O)c1cc2nccc(-c3ccccc3-c3cccc(Cl)c3)n2n1,,IC50,RNA-dependent RNA polymerase,Hepatitis C virus,>10 µM
Cc1ccc(C(=O)N(c2cc(-c3ccccc3)sc2C(=O)O)C(C)C)c(C(N)=O)c1,,IC50,NS3 ATPase,Hepatitis C virus,5–20 µM

For reference, 6 entries again:

smiles | dose | read-out | protein | agent | value
CC[C@@H](C=O)NC(=O)[C@@H]1C[C@@H](OCc2ccc3c(c2)OCOC3)CN1C(=O)[C@@H](NC(=O)[C@@H](NC(=O)c1cnccn1)C(C)C)C(C)C |  | Ki | NS3 protease | Hepatitis C virus | 1–100 µM
O=C(Cc1cccs1)Nc1ccsc1-c1nc(C(=O)O)c(O)c(=O)[nH]1 |  | IC50 | HCV polymerase | Hepatitis C virus | <25 µM
CCC(CC)n1c(-c2ccc3nc(-c4cc(OC)ccc4-c4ccc(Cl)cc4)ccc3c2)nc2cc(C(=O)O)ccc21 | 100 µM | inhibition | NS5B polymerase | Hepatitis C virus | 101%
O=C(NC(Cc1c[nH]c2ccc(O)cc12)C(=O)O)c1ccc2c(c1)nc(-c1ccc3nc(-c4cc(C(=O)N5CCCC5)ccc4-c4ccc(Cl)cc4)cnc3c1)n2C1CCCCC1 | 100 µM | inhibition | NS5B polymerase | Hepatitis C virus | 99.5%
O=C(O)c1ccc2c(c1)nc(-c1ccc3c(c1)CCC(c1ccccc1)N3)n2C1CCCCC1 | 33 µM | inhibition | NS5B polymerase | Hepatitis C virus | 99.25%
COc1nc(Nc2ccc3cn[nH]c3c2)nc(N2CCOCC2)n1 | 0.01 µg/mL | inhibition | DNA polymerase | Hepatitis B virus | 30%

a–b is a range or a potency band. Percent inhibition refers to the dose given; in toxicity tests it is the harm to the cells. Blank or dashed fields: not listed here. Neighbouring rows are from separate reports.